Measured values from several laboratories, pooled; numbers as filed in NIAID ChemDB.

All rows: tests in culture; agent: Candida albicans; read-out: MIC90

Neighbouring rows are from separate reports. A number after MIC or MFC names an inhibition level or a share of isolates. An empty or dashed field is not shown.

smiles	setting	strain	value
c1csc(C(c2nccc3ccccc23)n2ccnc2)c1	-	44 strains	128 µg/mL
CC(C)C(CCC(C)C1CC[C@@]2(C)C3=C(CCC12C)C1(C)CC[C@H](O)C(C)(C)C1CC3)N=[N+]=[N-]	-	A.10231	100 µg/mL
Fc1ccccc1COc1ccc(C(c2nccc3ccccc23)n2ccnc2)cc1	-	17 strains	64 µg/mL
CC(C)C(CCC(C)C1CC[C@@]2(C)C3=C(CCC12C)C1(C)CC[C@H](O)C(C)(C)C1CC3)SCc1ccccc1	-	A.10231	50 µg/mL
CC(=O)OCC1C=C(c2cccc(Cl)c2)C(=O)O1	-	25 isolates	4 µg/mL
Fc1ccc(COc2ccc(C(c3nccc4ccccc34)n3ccnc3)cc2)cc1	-	16 strains	≥256 µg/mL
CCC(C)CC(C)CCCCCCCCC(=O)N[C@H]1C[C@@H](O)[C@H](NCCN)NC(=O)[C@@H]2[C@@H](O)CCN2C(=O)[C@H]([C@H](O)CCN)NC(=O)[C@H]([C@H](O)[C@@H](O)c2ccc(O)cc2)NC(=O)[C@@H]2C[C@@H](O)CN2C(=O)[C@H]([C@@H](C)O)NC1=O	-	40 isolates azole-susceptible	0.4 µg/mL
CC(C)C(CCC(C)C1CCC2C3CC=C4C[C@@H](O)CCC4(C)C3CCC12C)NS(=O)(=O)O	-	B02630	6.25 µg/mL
Fc1ccc(COc2ccc(C(c3cccc4ccccc34)n3ccnc3)cc2)cc1.O=[N+]([O-])O	-	16 strains	≥256 µg/mL
C[C@H]1[C@H](O)[C@@H](C)/C=C/C=C/C=C/C=C/C=C/C=C/C=C/[C@H](O[C@@H]2O[C@H](C)[C@@H](O)[C@H](N)[C@@H]2O)C[C@@H]2O[C@](O)(C[C@@H](O)C[C@@H](O)CC[C@H](O)[C@@H](O)C[C@@H](O)CC(=O)O[C@H]1C)C[C@H](O)[C@H]2C(=O)O	-	10 isolates azole-resistant	0.2 µg/mL
CC[C@@H]([C@H](C)O)n1ncn(-c2ccc(N3CCN(c4ccc(OC[C@@H]5CO[C@@](Cn6cncn6)(c6ccc(F)cc6F)C5)cc4)CC3)cc2)c1=O	-	10 strains (fluconazole- itraconazole-susceptible)	<0.03 µg/mL
C[C@@H](c1ncncc1F)[C@](O)(Cn1cncn1)c1ccc(F)cc1F	48 h	Isolate M27-T-micro	0.78 µg/mL
CC(C)C(N)CCC(C)C1CC[C@@]2(C)C3=C(CCC12C)C1(C)CC[C@H](O)C(C)(C)C1CC3	-	IFO. 1385	6.25 µg/mL
CC(=O)OCC1C=C(c2ccc(Cl)c(Cl)c2)C(=O)O1	-	16 isolates fluconazole-susceptible	2 µg/mL
Clc1cccc(Cl)c1COc1ccc(C(c2nccc3ccccc23)n2ccnc2)cc1	-	17 strains	≥256 µg/mL
CC(C)C(N)CCC(C)C1CCC2C3CC=C4C[C@@H](O)CCC4(C)C3CCC12C	-	B02630	1.56 µg/mL

For reference, 2 entries again:

{"smiles": "CC(C)C(N)CCC(C)C1CC[C@@]2(C)C3=C(CCC12C)C1(C)CC[C@H](O)C(C)(C)C1CC3", "strain": "IFO. 1385", "value": "6.25 µg/mL"}
{"smiles": "CC(C)C(CCC(C)C1CCC2C3CC=C4C[C@@H](O)CCC4(C)C3CCC12C)NS(=O)(=O)O", "strain": "B02630", "value": "6.25 µg/mL"}